Measured values from several laboratories, pooled; numbers as filed in NIAID ChemDB.

Common to all: tests in culture; organism: Candida albicans; measure: MIC80

Rows are shuffled and stem from different studies. MIC50, MIC90 and the like: level of inhibition, or share of isolates inhibited. An empty or dashed field is not shown.

structure | strain or isolate | changes | read by | conditions | result
COC1Cc2cccc(c2)Oc2c(O)cccc2CCc2ccc(cc2)Oc2cc1cc(O)c2O | BWP17-DPP3-GFP |  | broth dilution |  | >64 µg/mL
Oc1ccccc1N=Cc1ccc2cccc(O)c2n1 |  |  |  |  | 62.5 µg/mL
C=C(C)CCC[C@]1(C)OC(=O)[C@]23[C@@H](O)C=C4[C@@H](CC[C@H]5C(C)(C)[C@@H](O[C@@H]6OC[C@@H](O[C@@H]7O[C@H](CO)[C@@H](O)[C@H](O[C@@H]8O[C@H](CO)[C@@H](O)[C@H](OC)[C@H]8O)[C@H]7O)[C@H](O)[C@H]6O[C@@H]6O[C@H](C)[C@@H](O[C@@H]7O[C@H](CO)[C@@H](O)[C@H](O[C@@H]8O[C@H](CO)[C@@H](O)[C@H](OC)[C@H]8O)[C@H]7O)[C@H](O)[C@H]6O)CC[C@]45C)[C@]2(C)CC[C@@H]31 | ATCC 76615 |  |  |  | 2.81 µM
Oc1cccc(CCc2ccc(Oc3cc(CCc4cccc(O)c4)ccc3O)cc2)c1 | BWP17-DPP3-GFP |  | broth dilution |  | >64 µg/mL
Oc1cccc2ccc(/C=C/c3cccc(Cl)c3)nc12 |  |  |  |  | 15.63 µg/mL
CCCSc1ccc(N=C(N)N)cc1 | ATCC 44859 |  |  |  | >1000 µM
Oc1ccc(/C=C/c2cc(O)cc(O)c2)cc1 |  |  | turbidity |  | >45.65 µg/mL
CCC(C)n1ncn(-c2ccc(N3CCN(c4ccc(OC[C@H]5CO[C@](Cn6cncn6)(c6ccc(Cl)cc6Cl)O5)cc4)CC3)cc2)c1=O | ATCC 76615 |  | broth dilution |  | 0.0625 µg/mL
CN(C/C=C/C#CC(C)(C)C)Cc1cccc2ccccc12 |  |  | broth dilution | clinical isolate | 3.44 µM
Oc1ccc2cc1Oc1ccc(cc1)CCc1ccc(c(O)c1)-c1ccc(cc1O)CC2 | BWP17-DPP3-GFP |  | broth dilution |  | 64 µg/mL
CCCCCSc1ccc(N=C(N)N)cc1 | ATCC 44859 |  |  |  | 125 µM
CN(C/C=C/C#CC(C)(C)C)Cc1cccc2ccccc12 | ATCC 76615 |  |  |  | 12.23 µM
C=CCSSSSCC=C | 39 isolates |  |  |  | 0.5 µg/mL
Brc1ccc(C[N+]2=C(c3ccco3)c3cc4c(cc3CC2)OCO4)cc1.[Br-] | Clinical isolate | Fluconazole-resistant | broth dilution |  | >64 µg/mL
CCCCCCCCCCCCN=C(N)N | ATCC 44859 |  |  |  | 7.81 µM
COc1ccc(Cc2c3[n+](cc4c(OC)c(OC)ccc24)CCc2cc4c(cc2-3)OCO4)cc1.[Br-] | Clinical isolate | Fluconazole-resistant | broth dilution |  | 32 µg/mL
CCCCCCCSc1ccc(N=C(N)N)cc1 | ATCC 44859 |  |  |  | 31.25 µM
O=C(/C=C/c1ccccc1)NCCc1ccc2c(c1)OCO2 | Clinical isolate | Fluconazole-resistant | broth dilution |  | >64 µg/mL
C[N+]1=CC2C(=O)c3nccc4ccnc(c34)C2C1 |  |  |  |  | >64 µg/mL
O=C(Cc1ccc(Cl)cc1Cl)NCCc1ccc2c(c1)OCO2 | Clinical isolate | Fluconazole-resistant | broth dilution |  | >64 µg/mL
CCCCCCCCCSc1ccc(N=C(N)N)cc1 | ATCC 44859 |  |  |  | 7.81 µM
C=CCSSSCC=C | 39 isolates |  |  |  | 1 µg/mL
OC(Cn1cncn1)(Cn1cncn1)c1ccc(F)cc1F | ATCC 76615 |  |  |  | 0.82 µM
Oc1ccc2cc1Oc1ccc(cc1)CCc1ccc(O)c(c1)Oc1ccc(cc1O)CC2 | BWP17-DPP3-GFP |  | broth dilution |  | >64 µg/mL
CO[C@@H]1[C@@H](O)[C@H](O[C@@H]2[C@@H](O)[C@H](O[C@H]3[C@H](O)[C@@H](O)[C@H](O[C@H]4[C@H](O[C@H]5CC[C@]6(C)C7=C[C@H](O)[C@]89C(=O)O[C@@](C)(CCCC(C)(C)OC(C)=O)[C@H]8CC[C@@]9(C)[C@@H]7CC[C@H]6C5(C)C)OC[C@@H](O[C@@H]5O[C@H](CO)[C@@H](O)[C@H](O[C@@H]6O[C@H](CO)[C@@H](O)[C@H](OC)[C@H]6O)[C@H]5O)[C@@H]4O)O[C@@H]3C)O[C@H](CO)[C@H]2O)O[C@H](CO)[C@H]1O | ATCC 76615 |  |  |  | 43.13 µM
Cc1ccc(Sc2ccc(N=C(N)N)cc2)cc1 | ATCC 44859 |  |  |  | 250 µM
C[N+]1(C)CCc2cc3c(cc2C1)OCO3.[Br-] | Clinical isolate | Fluconazole-resistant | broth dilution |  | >64 µg/mL
CO[C@@H]1[C@@H](O)[C@H](O[C@@H]2[C@@H](O)[C@H](O[C@H]3[C@H](O)[C@@H](O)[C@H](O[C@H]4[C@H](O[C@H]5CC[C@]6(C)C7=C[C@H](O)[C@]89C(=O)O[C@@](C)(CCCC(C)C)[C@H]8CC[C@@]9(C)[C@@H]7CC[C@H]6C5(C)C)OC[C@@H](O[C@@H]5O[C@H](CO)[C@@H](O)[C@H](O[C@@H]6O[C@H](CO)[C@@H](O)[C@H](OC)[C@H]6O)[C@H]5O)[C@@H]4O)O[C@@H]3C)O[C@H](CO)[C@H]2O)O[C@H](CO)[C@H]1O | ATCC 76615 |  |  |  | 2.8 µM
COc1ccc2c(c1OC)CN1CCc3cc4c(cc3C1C2)OCO4 | Clinical isolate | Fluconazole-resistant | broth dilution |  | >64 µg/mL
CC(C)(C)c1ccc(C[N+]2=C(c3ccco3)c3cc4c(cc3CC2)OCO4)cc1.[Br-] | Clinical isolate | Fluconazole-resistant | broth dilution |  | >64 µg/mL
Oc1cccc(N=Cc2ccc3cccc(O)c3n2)c1 |  |  |  |  | 125 µg/mL
COc1cc(C[C@H](C)[C@H](C)Cc2ccc(O)c(O)c2)ccc1O | CCC 125-2000 |  | broth dilution |  | 62.5 µg/mL
CCCCCCCCCCCCCCCCSc1ccc(N=C(N)N)cc1 | ATCC 44859 |  |  |  | 125 µM
O=C(Cc1cccs1)NCCc1ccc2c(c1)OCO2 | Clinical isolate | Fluconazole-resistant | broth dilution |  | >64 µg/mL

For reference, 5 entries again:

structure,strain or isolate,changes,read by,conditions,result
CCCCCCCCCSc1ccc(N=C(N)N)cc1,ATCC 44859,,,,7.81 µM
CC(C)(C)c1ccc(C[N+]2=C(c3ccco3)c3cc4c(cc3CC2)OCO4)cc1.[Br-],Clinical isolate,Fluconazole-resistant,broth dilution,,>64 µg/mL
C=C(C)CCC[C@]1(C)OC(=O)[C@]23[C@@H](O)C=C4[C@@H](CC[C@H]5C(C)(C)[C@@H](O[C@@H]6OC[C@@H](O[C@@H]7O[C@H](CO)[C@@H](O)[C@H](O[C@@H]8O[C@H](CO)[C@@H](O)[C@H](OC)[C@H]8O)[C@H]7O)[C@H](O)[C@H]6O[C@@H]6O[C@H](C)[C@@H](O[C@@H]7O[C@H](CO)[C@@H](O)[C@H](O[C@@H]8O[C@H](CO)[C@@H](O)[C@H](OC)[C@H]8O)[C@H]7O)[C@H](O)[C@H]6O)CC[C@]45C)[C@]2(C)CC[C@@H]31,ATCC 76615,,,,2.81 µM
COc1ccc2c(c1OC)CN1CCc3cc4c(cc3C1C2)OCO4,Clinical isolate,Fluconazole-resistant,broth dilution,,>64 µg/mL
COC1Cc2cccc(c2)Oc2c(O)cccc2CCc2ccc(cc2)Oc2cc1cc(O)c2O,BWP17-DPP3-GFP,,broth dilution,,>64 µg/mL